Compound potency records, mixed from different reports. Data source: NIAID ChemDB in PubChem.

Shared fields: tests in culture; organism: Mycobacterium tuberculosis

a–b is a range or a potency band.

structure	strain or isolate	read by	endpoint	dose	cell line	value
CC(C)CCN1C(=O)c2cc(Cl)nnc2Oc2ccc(Cl)cc21	H37Rv	BACTEC	EC50	-	-	>12.5 µg/mL
O=C(Nc1ncc([N+](=O)[O-])s1)c1cc(Cl)cc(Cl)c1	H37Rv	BACTEC	inhibition	12.5 µg/mL	-	99%
CC(=O)OCC1=C(C(=O)O)N2C(=O)[C@@H](NC(=O)Cc3cccs3)[C@H]2SC1	-	-	inhibition	100 µg/mL	-	0%
COC(=O)C1=C2Nc3ccccc3[C@@]23CCN2C3[C@]3(CCO[C@H]3[C@@]3(CC4C[C@]56CCO[C@H]5CCN5CC[C@H](C4N(c4ccccc4OC)C3)C56)[C@H]2O)C1	H37Rv	resazurin	MIC90	-	-	>50 µg/mL
CN[C@@H]1[C@@H](O)[C@@H](O[C@@H]2[C@@H](O)[C@H](O[C@H]3O[C@H](CN)CC[C@H]3N)[C@@H](N)C[C@H]2N)OC[C@]1(C)O	H37Rv	-	MBC	-	-	16 µg/mL
CCN(CC)C(=S)S[Se](SC(=S)N(CC)CC)(SC(=S)N(CC)CC)SC(=S)N(CC)CC	INH-r	-	MIC	-	-	0.8 µg/mL
CC1COc2c(N3CCN(C)CC3)c(F)cc3c(=O)c(C(=O)O)cn1c23	187 isolates	-	MIC90	-	-	1 µg/mL
O=C(N/N=C/c1ccc(Cl)cc1)Nc1ccc2c(c1)C(=O)C(=O)N2CN1CCCC1	MDR	resazurin	MIC	-	-	>50 µg/mL
Oc1cc(CCCc2ccccc2)ccc1Oc1ccc(Cl)cc1Cl	Clinical isolate 5071	-	MIC	-	-	13 µM
CCCCCCCN1C(=O)c2cc(Cl)nnc2Oc2ccc3ccccc3c21	H37Rv	BACTEC	inhibition	12.5 µg/mL	-	32%
CC(C)c1cnc(C(=O)/C=C/c2ccc(Cl)cc2)cn1	H37Rv	absorbance	MIC	-	-	12.5 µg/mL
NNC(=O)CC(N)C(=O)O	H37Rv	BACTEC	MIC	-	-	≥12.5 µg/mL
CCCCCN1C(=O)c2cc(Cl)nnc2Oc2ccc3ccccc3c21	H37Rv	BACTEC	EC50	-	-	<12.5 µg/mL
NC(=O)c1cnccn1	CA516	-	MIC	-	-	>900 µg/mL
Cc1nc2scc(-c3ccco3)c2c(=O)n1/N=C/C1CCCCC1	CNCTC MY331/88	-	MIC	-	-	64 µM
NNC(=O)c1ccncc1	H37Rv	fluorescence / absorbance	MIC	-	-	0.97 µM
CO[C@H]1/C=C/O[C@@]2(C)Oc3c(C)c(O)c4c(O)c(c(/C=N/N5CCN(C)CC5)c(O)c4c3C2=O)NC(=O)/C(C)=C\C=C\[C@H](C)[C@H](O)[C@@H](C)[C@@H](O)[C@@H](C)[C@H](OC(C)=O)[C@@H]1C	Clinical isolate 5	-	MIC	-	-	0.5 µg/mL
O=c1c(Cl)cc2nc3ccccc3sc-2c1Cl	H37Rv	-	MIC	-	VERO	3.13 µg/mL
OC[C@H](O)COCn1cc(Cn2ncc3c(NCc4ccccc4)ncnc32)nn1	H37Rv	BACTEC	inhibition	12.5 µg/mL	-	0%
CCCCc1cnc(C(=O)/C=C/c2ccc(Br)cc2)cn1	H37Rv	absorbance	MIC	-	-	>50 µg/mL
Cc1nn(-c2ccccc2)c2c1C(c1cn(-c3ccccc3)nc1-c1ccc(Cl)cc1)C1=C(NC(C)(c3cc(O)c(Cl)c(O)c3)NC1=O)O2	MTCC 300	agar diffusion / agar	MIC	-	-	1000 µg/mL
Cc1nc2scc(-c3ccco3)c2c(=O)n1NC(=O)c1ccccc1	CNCTC MY331/88	-	MIC	-	-	50 µM
CCCCCCNc1c([N+](=O)[O-])cc(C)cc1[N+](=O)[O-]	H37Rv	BACTEC	MIC	-	-	12.5 µg/mL
Nc1ncnc2c1cnn2Cc1cn(COC[C@@H](O)CO)nn1	H37Rv	BACTEC	inhibition	12.5 µg/mL	-	0%
S=C(NCNC(=S)c1ccncc1)c1ccncc1	-	resazurin	inhibition	6.25 µg/mL	-	1%
Cc1ccc(/C=N/NC(=O)Nc2ccc3c(c2)C(=O)C(=O)N3CN2CCN(C)CC2)cc1	MDR	resazurin	MIC	-	-	>50 µg/mL
CCCCCCCCO[C@H]1O[C@H](CO)[C@@H](O[C@H]2O[C@H](CO)[C@@H](N)[C@@H]2O)[C@@H]1O	H37Rv	-	inhibition	6.25 µg/mL	-	10%
Cc1nc(C(=O)O)c(=O)[nH]c1C	H37Rv	BACTEC	MIC	-	-	≥12.5 µg/mL
CCCCCN1C(=O)c2ccnnc2Oc2ccccc21	H37Rv	BACTEC	EC50	-	-	>12.5 µg/mL
CC1CN(c2c(F)cc3c(=O)c(C(=O)O)cn(C4CC4)c3c2O)CCN1.[Cl][Rh]([Cl])[Cl]	ATCC 27294	agar diffusion	zone	0.2 µg/mL	-	15 mm
O=C(NNCN1C(=O)c2ccccc2C1=O)c1ccccc1	H37Rv	BACTEC	inhibition	12.5 µg/mL	-	17%
NNC(=O)c1ccncc1	H37Rv	absorbance	MIC	-	-	0.1–0.39 µg/mL
Cc1nc2scc(-c3ccco3)c2c(=O)n1N	CNCTC MY331/88	-	MIC	-	-	500 µM
CN[C@@H]1[C@H](O)[C@H](NC)[C@H]2O[C@@]3(O)C(=O)C[C@@H](C)O[C@H]3O[C@@H]2[C@H]1O	H37Rv	-	MBC	-	-	>64 µg/mL
Cc1nc2scc(-c3ccco3)c2c(=O)n1/N=C/c1ccco1	CNCTC MY331/88	-	MIC	-	-	56 µM
CO[C@H]1/C=C/O[C@@]2(C)Oc3c(C)c(O)c4c(O)c(c(/C=N/N5CCN(C)CC5)c(O)c4c3C2=O)NC(=O)/C(C)=C\C=C\[C@H](C)[C@H](O)[C@@H](C)[C@@H](O)[C@@H](C)[C@H](OC(C)=O)[C@@H]1C	MDR	resazurin	MIC	-	-	25 µg/mL
Cc1ccc2c(c1)Oc1nnc(Cl)cc1C(=O)N2CC1CCCCC1	H37Rv	BACTEC	inhibition	12.5 µg/mL	-	49%
C/C=N/n1c(C)nc2scc(-c3ccco3)c2c1=O	CNCTC MY331/88	-	MIC	-	-	60 µM
Cc1ccc(-c2n[nH]c(=O)n2-n2c(C)ccc2C)cc1	1075	-	MIC	-	-	2.58 µg/mL
NC[C@H]1O[C@H](O[C@H]2[C@H](O)[C@@H](O[C@H]3O[C@H](CO)[C@@H](O)[C@H](N)[C@H]3O)[C@H](N)C[C@@H]2N)[C@H](O)[C@@H](O)[C@@H]1O	H37Rv	-	MIC	-	-	2 µg/mL
COc1ccc2c(c1OC)C(=O)OC2	H37Rv	BACTEC	MIC	-	-	≥128 µg/mL
CCCCCCCCN1C(=O)c2ccnnc2Oc2cc(C)ccc21	H37Rv	BACTEC	inhibition	12.5 µg/mL	-	12%
CO[C@H]1/C=C/O[C@@]2(C)Oc3c(C)c(O)c4c(O)c(c5sc(N)nc5c4c3C2=O)NC(=O)/C(C)=C\C=C\[C@H](C)[C@H](O)[C@@H](C)[C@@H](O)[C@@H](C)[C@H](OC(C)=O)[C@@H]1C	H37Rv	resazurin	MIC bound	-	-	<6.25 µg/mL
CO[C@@]1(NC(=O)C(C(=O)O)c2ccc(O)cc2)C(=O)N2C(C(=O)O)=C(CSc3nnnn3C)CO[C@@H]21	-	-	inhibition	100 µg/mL	-	0%
C#CCn1ncc2c(Cc3ccccc3)ncnc21	H37Rv	BACTEC	inhibition	12.5 µg/mL	-	90%
Nc1ccc(C(=O)O)c(O)c1	Clinical isolate 3	-	MIC	-	-	0.1 µg/mL
CC(C)(C)c1cnc(C(=O)/C=C/c2ccc(F)cc2)cn1	H37Rv	absorbance	MIC	-	-	>25 µg/mL
O=[N+]([O-])c1ccc(N=NNc2ccc([N+](=O)[O-])cc2Br)c(Br)c1	H37Ra-lux	luminescence	EC50	-	-	0.88 µM
CCC1=CC(=O)C(C)=C(C)C1=O	H37Rv	BACTEC	MIC	-	-	16 µg/mL
CO[C@@]1(NC(=O)Cc2cccs2)C(=O)N2C(C(=O)O)=C(COC(N)=O)CS[C@@H]21	-	-	inhibition	100 µg/mL	-	97%
O=C(/C=C/c1ccc(Br)cc1)c1cnccn1	H37Rv	absorbance	MIC	-	-	12.5 µg/mL
Cc1nc2scc(-c3ccco3)c2c(=O)n1NC(=O)c1ccc([N+](=O)[O-])cc1	CNCTC MY331/88	-	MIC	-	-	16 µM
CSC(=S)NCC(=O)O	H37Rv	BACTEC	inhibition	128 µg/mL	-	60%
NCc1ccccc1CC(=O)N[C@@H]1C(=O)N2C(C(=O)O)=C(CSc3nnnn3CC(=O)O)CS[C@H]12	65 isolates	BACTEC	inhibition	12.5 µg/mL	-	40%
CCCCCCCCO[C@H]1O[C@H](CO[C@H]2O[C@H](CO)[C@@H](N)[C@@H]2O)[C@@H](O)[C@@H]1O	H37Rv	-	EC50	-	-	>6.25 µg/mL
COC(=O)C(Cc1c[nH]c2ccccc12)N1CN(C)c2ccccc2C1=O	H37Rv	BACTEC	MIC bound	-	-	>12.5 µg/mL
OC[C@@H](O)COCn1nncc1Cn1ncc2c(Sc3ccccc3)ncnc21	H37Rv	BACTEC	inhibition	12.5 µg/mL	-	0%
COc1ccc(-c2nn(-c3ccccc3)cc2C2C3=C(NC(C)(c4cc(O)c(I)cc4Cl)NC3=O)Oc3c2c(C)nn3-c2ccccc2)cc1	MTCC 300	agar diffusion / agar	zone	1 mg/mL	-	3.6 mm
N[C@@H]1CONC1=O	H37Rv	-	MIC	-	-	10 µg/mL
CCCc1cnc(C(=O)/C=C/c2ccc(Br)cc2)cn1	H37Rv	absorbance	MIC	-	-	50 µg/mL
Cc1nn(-c2ccccc2)c2c1C(c1cn(-c3ccccc3)nc1-c1ccc(F)cc1)C1=C(NC(C)(c3cc(O)c(Cl)c(O)c3)NC1=O)O2	MTCC 300	agar diffusion / agar	MIC	-	-	1000 µg/mL
O=C(N/N=C/c1ccc([N+](=O)[O-])cc1)Nc1ccc2c(c1)C(=O)C(=O)N2CN1CCN(c2ccccc2)CC1	MDR	resazurin	MIC	-	-	12.5 µg/mL
O=S1(=O)CS(=O)(=O)OCCO1	H37Rv	BACTEC	inhibition	12.5 µg/mL	-	5%
Oc1cc(CC2CCCCC2)ccc1Oc1ccc(Cl)cc1Cl	H37Rv	-	MIC	-	-	27 µM
CCCCCCCC(=O)N1[C@H]2[C@@H]1CN1C3=C(C(=O)C(N)=C(C)C3=O)[C@@H](COC(N)=O)[C@@]21OC	PZA-R	-	MIC	-	-	0.2 µg/mL
CN(C)CN1C(=O)C(=O)c2cc(NC(=O)N/N=C/c3ccc(Cl)cc3)ccc21	MDR	resazurin	MIC	-	-	>50 µg/mL
NC(=S)N/N=C1/C(=O)N(c2ccccc2)C(=O)C1C(=O)Nc1ccccc1	H37Rv	BACTEC	MIC	-	-	≥12.8 µg/mL
COC(=O)C1=C2Nc3ccccc3[C@@]23CCN2C[C@]4(CC5C[C@]67CC(=O)O[C@H]6CCN6CC[C@H](C5N(c5ccccc5OC)C4)C67)[C@@H]4OCC[C@]4(C1)C23	H37Rv	resazurin	MIC90	-	-	>100 µg/mL
CC1=NN(C(=O)CC(=O)Nc2ccc(C(=O)O)cc2)C(=O)C1N=Nc1ccccc1	H37Rv	BACTEC	MIC bound	-	-	>12.5 µg/mL
O=C(N/N=C/c1ccc(Cl)cc1)Nc1ccc2c(c1)C(=O)C(=O)N2CN1CCN(c2ccccc2)CC1	MDR	resazurin	MIC	-	-	6.25 µg/mL
COc1c(N2CCNC(C)C2)c(F)cc2c(=O)c(C(=O)O)cn(C3CC3)c12	Z148 (isoniazid streptomycin-resistant)	-	MIC	-	-	0.25 µg/mL
CCCCCCCCO[C@H]1O[C@H](CO[C@H]2O[C@H](CO)[C@@H](OC)[C@@H]2O)[C@@H](O)[C@@H]1O	H37Rv	-	inhibition	6.25 µg/mL	-	8%
C/C(=N/NC(=S)N1CCC(C)CC1)c1nccnc1C	H37Rv	BACTEC	inhibition	12.5 µg/mL	-	98%
Cc1nc2scc(-c3ccco3)c2c(=O)n1/N=C/c1ccc([N+](=O)[O-])cc1	CNCTC MY331/88	-	MIC	-	-	7 µM
O=C1[C@@H]2C(c3ccccc3)=NN(C(=O)c3ccccc3)[C@@H]2C(=O)N1c1ccccc1	H37Rv	BACTEC	inhibition	12.8 µg/mL	-	11%
CCCCc1cnc(C(=O)/C=C/c2ccc(Cl)cc2)cn1	H37Rv	absorbance	MIC	-	-	>50 µg/mL
CC/C=C(C)/C=N/NC(=O)c1ccc[n+](C)c1.Cc1ccc(S(=O)(=O)O)cc1	H37Rv	BACTEC	MIC bound	-	-	>12.5 µg/mL
CCCCCCCCO[C@H]1O[C@H](CO[C@@H]2[C@@H](OCCCCCCCC)O[C@H](CO)[C@H]2OC)[C@@H](O[C@@H]2O[C@H](O)[C@@H](OC)[C@@H]2O)[C@@H]1O	H37Rv	-	EC50	-	-	>6.25 µg/mL

Repeating the final 4 entries:

structure | strain or isolate | read by | endpoint | dose | cell line | value
O=C1[C@@H]2C(c3ccccc3)=NN(C(=O)c3ccccc3)[C@@H]2C(=O)N1c1ccccc1 | H37Rv | BACTEC | inhibition | 12.8 µg/mL | - | 11%
CCCCc1cnc(C(=O)/C=C/c2ccc(Cl)cc2)cn1 | H37Rv | absorbance | MIC | - | - | >50 µg/mL
CC/C=C(C)/C=N/NC(=O)c1ccc[n+](C)c1.Cc1ccc(S(=O)(=O)O)cc1 | H37Rv | BACTEC | MIC bound | - | - | >12.5 µg/mL
CCCCCCCCO[C@H]1O[C@H](CO[C@@H]2[C@@H](OCCCCCCCC)O[C@H](CO)[C@H]2OC)[C@@H](O[C@@H]2O[C@H](O)[C@@H](OC)[C@@H]2O)[C@@H]1O | H37Rv | - | EC50 | - | - | >6.25 µg/mL

Zones are inhibition diameters on agar. Rows are shuffled and stem from different studies. An empty or dashed field is not shown. Percent inhibition refers to the dose given; in toxicity tests it is the harm to the cells. MIC50, MIC90 and the like: level of inhibition, or share of isolates inhibited. MIC bound comes from a single tested concentration. ECn: concentration that inhibits the pathogen or its effect by n%.